Laboratory results reported in the supplement of paper PMC9931576.
Where a chain is given by its changes, count along the chain named. Human monoclonal antibodies against the spike receptor-binding domain (heavy:light variable regions). IC50 against pseudoviruses bearing the spike of naturally observed variants; lower = stronger; >10 µg/ml means not reached at the top dose. No active / inactive call. The stated detection limit is 0.0005 µg/ml; values near or below 0.001 µg/ml lie at the floor of the assay.

B1: BD56-1638 (protein)
chain 1: QVQLVESGGGVVQPGRSLRLSCAASGFTFSTYGMHWVRQAPGTGLEWVTFISDDENKKYYIDSVKGRFTISRDNSKSTLYLQMNSLRPEDTAVYYCAKDPGFCSSTRCQTQDYFDYWGQGTLVTVSS
chain 2: SYVLTQPPSVSVAPGKTARVTCGGNNIGSKSVHWYQQKPGQAPVLVIFYDSDRPSGIPERFSGSNSGNTATLTISRVEAGDEADYYCQVWDGSTDHPWVFGAGTKLTVL
B2: BD56-1609 (protein)
chain 1: QVQLVESGGGVVQPGRSLRLSCAASGFTFSNYAMHWVRQAPGKGLEWVAVISYDGSNKYYADSVKGRFTISRDNSKNTLYLQMNSLRAEDTAVHYCAASGGDYIDYYYYDGMDVWGQGTTVTVSS
chain 2: DIQLTQSPSSLSASVGDRVTITCRASQGISSYLAWYQQKPGKAPKLLIYAASTLQSGVPSRFSGSGSGTDFTLTISSLQPEDFATYYCQQLIVYPLTFGGGTKVEIK
B3: BD56-1611 (protein)
chain 1: EVQLVESGGGLVQPGGSLRLSCAASGFTFSDYDMHWVRQRPGKGLEWVSTIGTAGDTYYRGSVKGRFTISRENAKSSLYLQMKSLRDGDTAVYYCARAQYSSNLYPRLDAWGQGTLVTVSS
chain 2: DIQMTQSPSSLSASVGDRVTITCRASQTIRDFLNWYQQKPGKAPKLLIYAASSLQSGVPSRFSGSGSGTDFTLTISSLQPEDFATYSCQQSYSSEWTFGQGTKVEIK
B4: BD56-1604 (protein)
chain 1: EVLLVESGGGFVKPGGSLRLSCAASGFSFSDAWMNWVRQAPGKGLEWVGRIETKTDGGTADYAAPVKARFTISRDDSKNMVYLQMNSLKIEDTAVYYCWFGELLHYYSYGMDVWGQGTTVTVSS
chain 2: DIQMTQSPSTLSASVGDRVTITCRASQSISTWLAWYQQKLGKAPKLLIYKASSLQTGVPSRFSGSGSGTEFTLTISGLRPDDFATYYCQQYNSHFYTFGQGTKLEIK
B5: BD56-1620 (protein)
chain 1: QVQLVESGGGVVQPGRSLRLSCAASGFTFRSYAIHWVRQAPGKGLEWVGVISSDGFDKYFADSVKGRATISRDNSKNTLFLQMNSLTTDDTAVYYCAREKVLGGSWSGYPMGDYWGQGTLVTVSS
chain 2: DIQMTQSPSSLSASVGDRVTIACQASQDINNYVSWFQQKPGKAPKLLIYDASNLETGVPSRFSGSGSGTHFTFTISSLQPEDIATYYCQQYDNFPRTFGRGTKLEIK
B6: BD56-1619 (protein)
chain 1: QLLLQESVSGLVKPSQTLSLTCAVSGGSISSGGFSWSWIRQAPGKGLEWIGNIYHGGSTHYNPSLKSRVTISGDRSKNQFSLKLTSVTAADTAVYYCARGRPPGYSYAYADDWYFDLWGRGTLVTVSS
chain 2: SYELTQPPSVSVSPGQTARITCSADALPTQYVYWYQQKPGQAPVLVIYKDSERPSGIPERFSGSSSGTKVTLTISGVQAEDEADYYCQSADSRGVVFGGGTKLTVL
B7: BD56-1614 (protein)
chain 1: EVQLVQSGGGLVQPGGSLRLSCAASGFIFGDYSMNWVRQAPGKGLEWVSYISSSSRTIYYAASVKGRFTISRDNAKNSLYLQMSSLRDEDTAMYYCARADLWGYDIVTDYSGLLDYWGQGTLVTVSS
chain 2: EIVLTQSPGTLSLSPGERATLSCRASQTVSSTYLAWYQQKPGQAPRLLIYGASSRATGIPDRFTGSGSGTDFTLTISRLEPEDFALYYCQQSDTPPATFGQGTKVDIK
B8: BD56-1606 (protein)
chain 1: QVQLVESGGGVVQPGRSLRLSCAASRFTFSTYGMHWVRQVPGKGLEWVAFIYYDGSNKYYANSVKGRFTISRDNSKNTLYLQMNSLRAEDTAVYFCAKQIAPYGGSSPYYFDYWGQGTLVTVSS
chain 2: DIQMTQSPSSLSASVGDRVTITCQASQVIDNYLNWYQQKPGKAPKLLIYDASNLEAGVPSRFSGSGSGTDFTFTISSLQPGDGATYYCQQSADLPLSFGGGTKVEIK
B9: BD56-1623 (protein)
chain 1: QLQLQESGPGLVKPSATLSLTCTVSGGFISSSTYYWGWIRQPPGKGLEWIASFFYTGTTFYNPSLKSRLTISVDTSRNHFSVKLISVTAADTAVYYCARHGTRLAVADSFDSWGQGTLVTVSS
chain 2: QSVLTQPPSVSGAPGQRVTISCTGSSSNIGAGFDVHWYRQLPGTAPKLLIYGNNIRPSGVPDRFSGSKSGTSASLAITGLQADDEGNYYCQSFDNSLSVWVFGGGTKLTVL
B10: BD56-1621 (protein)
chain 1: EVQLVESGGGLVKPGGSLRLSCAASGFTFITYTMNWVRQAPGQGLEWVSSISSSNRYIYYADSVKGRFTISRDNAKNSLYLRMSSLRAEDTAVYYCARVVAVDAPDDYYYFYGMDVWGQGTTVTVSS
chain 2: SYELTQPPSVSVSPGQTARITCSGDAFPRQYAYWYKQKPGQAPVLVIYKDTERPSGIPERFSGSNSGTTVTLTISGVQAEDEADYYCQSADRSGTYVLFGGGTKLTVL
B11: BD56-1617 (protein)
chain 1: QVQLVQSGAEVKKPGSSVKVSCKASGGTFSSYTITWVRQAPGQGLEWMGRIIPFLGVPNYAQKFQDRVTITADKSTSTAYMELRSLRSEDTAVYFCARVAPMATNDWYFDLWGRGTLVTVSS
chain 2: QSVLTQPPSVSGAPGQRVTISCTGSNSNIGAGYDVHWYQQLPGTAPKLLIYGNSNRPSGVPDRFSGSKSGTSASLAITGLQAEDEADYYCQSYDSSLSDSVFGGGTKLTVL
B12: BD56-1637 (protein)
chain 1: QVRLVQSGAEVKKPGSSVKVSCKASGGTFSSYTINWVRQAPGQGLEWMGRIIPILDIADYAQKFQGRVTITADKSTSTAYMELISLRSEDTAMYYCARDASDCTSTNCFDYWGQGTLVTVSS
chain 2: B11 chain 2 with A45P, G52V, D99G, S100P

Assays:
Experiment in all cases: pseudovirus neutralization IC50; higher = weaker neutralization
[1] = target: SARS-CoV-2 Omicron BA.1 spike pseudovirus
Procedure: (§1)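 Single-round VSV luciferase pseudovirus mixed with antibody dilutions for 1 h and put on Huh-7 cells for about a day; IC50 from the dose curve.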

[2] = target: SARS-CoV-2 Omicron BA.2 spike pseudovirus
Procedure: as §1

[3] = target: SARS-CoV-2 Omicron BA.2.75 spike pseudovirus
Procedure: as §1

[4] = target: SARS-CoV-2 Omicron BA.5 spike pseudovirus
Procedure: as §1

[5] = target: SARS-CoV-2 Omicron BQ.1.1 spike pseudovirus
Procedure: as §1

[6] = target: SARS-CoV-2 Omicron XBB spike pseudovirus
Procedure: as §1

[7] = target: SARS-CoV-2 early D614G spike pseudovirus
Procedure: as §1

Binder	pseudovirus neutralization IC50 [1] [µg/mL]	pseudovirus neutralization IC50 [2] [µg/mL]	pseudovirus neutralization IC50 [3] [µg/mL]	pseudovirus neutralization IC50 [4] [µg/mL]	pseudovirus neutralization IC50 [5] [µg/mL]	pseudovirus neutralization IC50 [6] [µg/mL]	pseudovirus neutralization IC50 [7] [µg/mL]
B1	> 10	> 10	> 10	> 10	> 10	> 10	> 10
B2	0.005	0.00211	0.00777	> 10	> 10	> 10	0.0185
B3	> 10	> 10	> 10	> 10	> 10	> 10	> 10
B4	> 10	> 10	> 10	> 10	> 10	> 10	> 10
B5	0.0314	0.0438	0.0674	0.0896	> 10	1.38	0.14
B6	> 10	> 10	> 10	> 10	> 10	> 10	> 10
B7	> 10	> 10	> 10	> 10	> 10	> 10	> 10
B8	> 10	> 10	> 10	> 10	> 10	> 10	> 10
B9	> 10	> 10	> 10	> 10	> 10	> 10	> 10
B10	2.11	1.42	2.71	0.949	2.91	2.41	3.51
B11	0.0416	0.0507	0.0874	4.56	> 10	7.33	0.669
B12	0.0561	0.0732	0.0785	3.05	> 10	7.36	0.238
